Experimental data reported in article PMC7290210 (Infection, Genetics and Evolution, 2020).

Molecular target: SARS-CoV2 S2 ECD (Severe acute respiratory syndrome coronavirus 2, UniProt P0DTC2)
Format: binding, SARS-CoV-2
Conditions: pH 5.5

## Glycyrrhizic acid
  Kd: 2.4 mM
